The results in this text go back to US20200002405A1.

The target of test [1] is LCMV ARM strain GP (LCMV, Armstrong strain) (UniProt P09991). The test can be described thus: cell-based or functional assay.
For test [2], the target named is LASV GPCysR4 (Lassa virus) (UniProt P08669).
Test [3] deals with LASV Josiah (lineage IV) glycoprotein, full-length GP (Lassa virus, Josiah strain) (UniProt P08669). The test can be described thus: cell-based or functional assay.
Test [4] deals with LASV A19 (lineage II) glycoprotein (Lassa virus, strain A19). The test can be described thus: cell-based or functional assay.
For test [5], the target named is LASV Pinneo (lineage I) glycoprotein (Lassa virus, strain Pinneo). The test can be described thus: cell-based or functional assay.
Test [6] deals with LASV 237 (lineage III) glycoprotein (Lassa virus, strain 237). The test can be described thus: cell-based or functional assay.
Test [7] concerns the target LASV Josiah (lineage IV) glycoprotein, full-length GP (Lassa virus, Josiah strain) (UniProt P08669). The test can be described thus: cell-based or functional assay. This is another data set of the same source.

Where two headings read alike, the source gives them in different places. A value given as a limit tells only on which side of the number the result lay.

In test [1], 8.11G (antibody) gave an IC50 (neutralization) of over 10 mg/L and an IC80 (neutralization) of over 10 mg/L.
As for 9.8A (antibody), in test [1], the IC50 (neutralization) is 0.112 mg/L and the IC80 (neutralization) turned out to be 0.248 mg/L.
For 37.2D (antibody), in that order: 0.518 mg/L and 2.36 mg/L.
Take Fab 37.7H: in test [2], the surface of GP buried turned out to be 1620 Å^2, the surface of GP buried at site A came to 1000 Å^2 and the surface of GP buried at site B was found to be 620 Å^2.
In test [1], 36.9F (antibody) yielded an IC50 (neutralization) of 0.591 mg/L and an IC80 (neutralization) of 3.33 mg/L.
Consider “36.1F (antibody; modification not given)”, for which the IC50 (neutralization) in test [3] is 0.132 mg/L; in test [4] it was over 20 mg/L; in test [5] it was over 20 mg/L; in test [6] it was over 20 mg/L; in test [7] it was 0.248 mg/L. Also, the IC80 (neutralization) is 0.206 mg/L in test [3]; over 20 mg/L in test [4]; over 20 mg/L in test [5]; over 20 mg/L in test [6]; 0.755 mg/L in test [7].
Regarding 37.7H (antibody), in test [1], the IC50 (neutralization) is over 10 mg/L and the IC80 (neutralization) is over 10 mg/L.
In test [1], 8.9F (antibody) showed an IC50 (neutralization) of over 10 mg/L and an IC80 (neutralization) of over 10 mg/L.
Regarding 10.4B (antibody), in test [1], the IC50 (neutralization) was over 10 mg/L and the IC80 (neutralization) was over 10 mg/L.
“12.1F (antibody; modification not given)”: the IC50 (neutralization) was determined as 0.172 mg/L in test [3]; 0.463 mg/L in test [4]; 0.285 mg/L in test [5]; 0.146 mg/L in test [6]; 0.158 mg/L in test [7]. The IC80 (neutralization) in test [3] was determined as 0.258 mg/L; in test [4] it was 2.27 mg/L; in test [5] it was 0.692 mg/L; in test [6] it was 0.458 mg/L; in test [7], 0.562 mg/L.
In test [1], 37.2G (antibody) returned an IC50 (neutralization) of 0.525 mg/L and an IC80 (neutralization) of 2.46 mg/L.
Regarding 18.5C (antibody), in test [1], the IC50 (neutralization) was 2.21 mg/L and the IC80 (neutralization) worked out at 4.83 mg/L.
For 36.1F (antibody), in that order: over 10 mg/L and over 10 mg/L.
The corresponding values for 12.1F (antibody) are 0.167 mg/L and 0.265 mg/L.
